In general, IC50 refers to the concentration at which inhibition is half-maximal.

Sequences of proteins named here, by UniProt entry; tags and fusion partners are left off. A line that says so, or that is headed by a name, gives the form on record, which may keep a tag or linker. Residues count along the entry.
UniProt C7C422, 29-270 with tags or gaps limits assumed: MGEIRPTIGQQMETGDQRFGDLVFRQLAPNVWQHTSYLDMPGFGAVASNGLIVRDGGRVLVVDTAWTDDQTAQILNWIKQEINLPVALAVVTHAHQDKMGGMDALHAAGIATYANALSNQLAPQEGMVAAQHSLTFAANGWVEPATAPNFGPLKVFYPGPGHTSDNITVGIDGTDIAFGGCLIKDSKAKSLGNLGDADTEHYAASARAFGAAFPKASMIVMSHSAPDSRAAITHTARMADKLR

Bounds are passed on as bounds.

IC50 data for two compounds are collected here from patent US9115079B2, “NDM inhibitor” (priority 2011, dated 2015).

For this assay, the target named is NDM-1 (Klebsiella pneumoniae, UniProt C7C422). To be noted: NDM-1 2.5 nM, 100 μM imipenem as substrate, 100 μM ZnSO4, pH 7.5, 30° C.; tested form: disodium salt.

Regarding `CC(C)/C(C(=O)O)=C(/C(=O)O)[C@H]1CC[C@H](O)CC1`, the half-maximal inhibitory concentration (IC50) was 30 to 100 µM.

Turning to `NCCOc1ccc(C/C(C(=O)O)=C(/C(=O)O)[C@H]2CC[C@@H](O)CC2)cc1`, the half-maximal inhibitory concentration (IC50) was < 10 µM.
